Values of other authors in patent US7652050B2, “Methods for increasing the survival of aquatic animals infected with an aquatic virus” (Laboratorio de Siagnóstico GAM S.A, priority 2001, dated 2010).

System: yellow fever virus
Conditions: cited from earlier work

COc1c(C)c2c(c(O)c1C/C=C(\C)CCC(=O)O)C(=O)OC2 [Myconhenolic Acid, 6-(4-hydroxy-6-methoxy-7-methyl-3-oxo-5-phthalanyl)-4-methyl-4-hexenoic acid]
EC50 relative to EICAR (times lower): ten
EC50 relative to ribavirin (times lower): 350 times
